What follows are compounds tested on HIV-1 NL4-3 viral clone expressing Renilla luciferase. Details: ratio of CC50 over EC50.
Format: cell-based
Description: Protocol for MT-2 Spread Assay
The present assay was used to screen candidate antiviral compounds by quantification of virus spread and production over several rounds of infection in vitro. MT-2, a HIV-1 permissive human T-cell line, was seeded in microtiter plates and was simultaneously treated with serially diluted compound and inoculated with a HIV-1 NL4-3 viral clone engineered to express Renilla luciferase in place of Net Following treatment, the culture was incubated for 96 hours. After the incubation, media was collected and used to estimate relative infectivity on the indicator cell line, TZM-bl. Additionally, viral spread was quantified by measuring luciferase activity via a commercially available luciferase substrate. In parallel, MT-2 cells were seeded and inoculated with mock virus in the presence of serially diluted compound. Compound toxicity was quantified 96 hours after treatment with AlamarBlue.
MT-2 (NIH Aids reagent program 237) cells were grown and maintained in an incubator at 37° C. with 5% CO2 using a basal medium of RPMI-1640 supplemented with 10% FBS. Cells were seeded in 100 μl at 2×10^4 cells/well in white walled 96-well microtiter plates. Candidate compounds were 3-fold serially diluted in the appropriate solvent. Solvent without compound was used as a no drug reference. Cells were inoculated at a multiplicity of 0.027 with an HIV-1 NL4-3 virus stock engineered to express Renilla luciferase in place of Net Diluted virus stock was first added to serially diluted compound. Compound and virus were delivered to cells in an equal volume (100 μl) and treated cultures were returned to the incubator for 96 hours. In parallel, plates for cytotoxicity estimates were prepared in the same way except cells were plated in clear walled 96-well microtiter plates and were mock infected.
At 96 hours post infection, 100 μl virus containing culture supernatant was collected from the treated and infected cultures and serially diluted in DMEM supplemented with 10% FBS, 1% sodium pyruvate, and 20 μg/ml DEAE dextran. One day prior, TZM-bl (ATCC PTA-5659) were cultured in basal medium of DMEM supplemented with 10% FBS and 1% sodium pyruvate and seeded at 7.5×10^3 cells/well in black walled 96-well microtiter plates. Diluted virus containing culture supernatant was transferred to TZM-bl cultures and incubated for 48 hours at 37° C. with 5% CO2. Infected TZM-bl cultures were fixed for 5 minutes with a 1% formaldehyde/0.2% gluteraldehyde/PBS solution then washed three times with PBS. Fixed cultures were incubated at 37° C. for 25 minutes with a 200 μg/ml MUG (4-Methylumbelliferyl β-D-[…])/DMEM solution. The reaction was stopped with an equal volume of 1M sodium carbonate and read at 360, 449 nm on fluorescence plate reader (Biotek).
At 96 hours post infection, 100 μl of culture supernatant was removed from the treated and infected cultures and EnduRen live cell substrate (Promega) was added at a final concentration 1.3 μg/ml. Cells were incubated for 1.5 hours at 37° C. with 5% CO2 then read on a luminescence plate reader (Biotek).
For all assays, data was imported into Accelrys Assay Explorer 3.3. In Assay Explorer, % inhibition (antiviral or cytotoxicity) was calculated using the solvent control as a reference by the following equation: 1−(SignalCompound/SignalReference). The % Inhibition and compound concentration data was fitted using the following 4-parameter logistic model (Assay Explorer model 42):
[formula] where X is compound concentration, Y is % inhibition, D is the maximum % Inhibition (constrained to 100%), C is IC50 value or inflection point, B is the hill slope, and A is the minimum % inhibition (constrained to 0%). The IC50 value is reported as the EC50 or CC50 depending on the assay endpoint. EC50 represents the effective concentration at which virus replication is inhibited by 50 percent. CC50 represents the concentration that results in the death of 50 percent of the host cells. […]

Compared with `COc1cc(C(C)(C)C)c(/C=C/C2NCCc3cc(OCc4ccccc4)c(OC)cc32)cc1OCc1ccccc1` (stereo not shown) [AS, 6-Benzyloxy-1-[(E)-2-(5-benzyloxy-2-tert-butyl-4-methoxy-phenyl)vinyl]-7-methoxy-1,2,3,4-tetrahydroisoquinoline], `COc1cc(/C=C/C2NCCc3cc(OC)c(OCc4ccccc4)cc32)ccc1OCc1ccccc1` (stereo not shown) [Example S, 7-benzyloxy-1-[(E)-2-(4-benzyloxy-3-methoxy-phenyl)vinyl]-6-methoxy-1,2,3,4-tetrahydroisoquinoline] is higher in SI: 1.3 for the first, 8.3 for the second.

First: COc1cc(C)c(/C=C/C2=NCCc3cc(OCc4ccccc4)c(OC)cc32)cc1OCc1ccccc1 [Example AE, 6-benzyloxy-1-[(E)-2-(5-benzyloxy-4-methoxy-2-methyl-phenyl)vinyl]-7-methoxy-3,4-dihydroisoquinoline]
Second: COc1cc(C)c(/C=C/C2c3cc(OC)c(OCc4ccccc4)cc3CCN2C(=O)OC(C)(C)C)cc1OCc1ccccc1 (stereo not shown) [Example Y, tert-butyl 6-benzyloxy-1-[(E)-2-(5-benzyloxy-4-methoxy-2-methyl-phenyl)vinyl]-7-methoxy-3,4-dihydro-1H-isoquinoline-2-carboxylate]
The SI of the first is higher: 76.5 for the first, 71.2 for the second.

First: COc1cc(C)c(/C=C/C2c3cc(OC)c(OCc4ccccc4)cc3CCN2C(=O)c2ccc(N)nc2)cc1OCc1ccccc1 (stereo not shown) [Example P, (6-amino-3-pyridyl)-[6-benzyloxy-1-[(E)-2-(5-benzyloxy-4-methoxy-2-methyl-phenyl)vinyl]-7-methoxy-3,4-dihydro-1H-isoquinolin-2-yl]methanone]
Second: COc1cc(C)c(/C=C/C2c3cc(OC)c(OCc4ccccc4)cc3CCN2C(=O)c2cccnc2)cc1OCc1ccccc1 (stereo not shown) [Example T, [6-benzyloxy-1-[(E)-2-(5-benzyloxy-4-methoxy-2-methyl-phenyl)vinyl]-7-methoxy-3,4-dihydro-1H-isoquinolin-2-yl]-(3-pyridyl)methanone]
The SI of the first is lower: 59.17 for the first, 107 for the second.

First: CCOC(=O)CCCOc1cc(/C=C/C2NCCc3cc(OCc4ccccc4)c(OC)cc32)ccc1OC (stereo not shown) [CV, Ethyl 4-[5-[(E)-2-(6-benzyloxy-7-methoxy-1,2,3,4-tetrahydroisoquinolin-1-yl)vinyl]-2-methoxy-phenoxy]butanoate]
Second: COc1ccc(/C=C/C2NCCc3cc(OCc4ccccc4)c(OC)cc32)cc1F (stereo not shown) [BF]
The SI of the first is lower: 20 for the first, 32.85 for the second.

Going from `COc1cc(C)c(CCC2NCCc3cc(OCc4ccccc4)c(OC)cc32)cc1OCc1ccccc1` (stereo not shown) [Example Q, 6-benzyloxy-1-[2-(5-benzyloxy-4-methoxy-2-methyl-phenyl)ethyl]-7-methoxy-1,2,3,4-tetrahydroisoquinoline] to `COc1cc2c(cc1OCc1ccccc1)CCNC2/C=C/c1cccc(OCc2ccccc2)c1` (stereo not shown) [BK, 6-Benzyloxy-1-[(E)-2-(3-benzyloxyphenyl)vinyl]-7-methoxy-1,2,3,4-tetrahydroisoquinoline], the SI rises from 3.8 to 15.4.

First: COc1cc(C)c(/C=C/C2NCCc3cc(OCc4ccccc4)c(OC)cc32)cc1C (stereo not shown) [BV, 6-Benzyloxy-7-methoxy-1-[(E)-2-(4-methoxy-2,5-dimethyl-phenyl)vinyl]-1,2,3,4-tetrahydroisoquinoline]
Second: COc1cc(C)c(/C=C/C2NCCc3cc(OCc4ccccc4)c(OC)cc32)c(C)c1 (stereo not shown) [BA, 6-Benzyloxy-7-methoxy-1-[(E)-2-(4-methoxy-2,6-dimethyl-phenyl)vinyl]-1,2,3,4-tetrahydroisoquinoline]
The SI of the first is higher: 8.7 for the first, 6.7 for the second.

Going from `COc1cc2c(cc1OCc1ccccc1)CCNC2/C=C/c1cc2c(cc1C)OCCO2` (stereo not shown) [BC, 6-Benzyloxy-7-methoxy-1-[(E)-2-(7-methyl-2,3-dihydro-1,4-benzodioxin-6-yl)vinyl]-1,2,3,4-tetrahydroisoquinoline] to `COc1cc2occc2cc1/C=C/C1NCCc2cc(OCc3ccccc3)c(OC)cc21` (stereo not shown) [EB, 6-Benzyloxy-7-methoxy-1-[(E)-2-(6-methoxybenzofuran-5-yl)vinyl]-1,2,3,4-tetrahydroisoquinoline], the SI falls from 90.6 to 20.

Going from `COc1cc2c(cc1OCc1ccccc1)CCNC2/C=C/c1cc2ccccc2s1` (stereo not shown) [DU, 1-[(E)-2-(1-Benzothiophen-2-yl)ethenyl]-6-(benzyloxy)-7-methoxy-1,2,3,4-tetrahydroisoquinoline] to `COc1cc2c(cc1OCc1ccccc1)CCNC2/C=C/c1ccccc1N(C)C` (stereo not shown) [DC, (E)-2-(2-(6-(benzyloxy)-methoxy-1,2,3,4-tetrahydroisoquinolin-1-yl)vinyl)-N,N-dimethylamine], the SI rises from 1.6 to 12.1.

Going from `COc1cc2c(cc1OCc1ccccc1)CCNC2/C=C/c1ccnn1C` (stereo not shown) [Example AK, 6-benzyloxy-7-methoxy-1-[(E)-2-(2-methylpyrazol-3-yl)vinyl]-1,2,3,4-tetrahydroisoquinoline] to `COc1cc2c(cc1OCc1ccccc1)CCNC2/C=C/c1ccncc1` (stereo not shown) [AW, 6-Benzyloxy-7-methoxy-1-[(E)-2-(4-pyridyl)vinyl]-1,2,3,4-tetrahydroisoquinoline], the SI rises from 1.1 to 3.5.

First: COc1cc2c(cc1OCc1ccccc1)CCNC2/C=C/c1cccc(-c2ncco2)c1 (stereo not shown) [EC, 2-[3-[(E)-2-(6-Benzyloxy-7-methoxy-1,2,3,4-tetrahydroisoquinolin-1-yl)vinyl]phenyl]oxazole]
Second: COc1ccc(/C=C/C2NCCc3cc(OCc4ccccc4)c(OC)cc32)cc1Br (stereo not shown) [AR, 6-Benzyloxy-1-[(E)-2-(3-bromo-4-methoxy-phenyl)vinyl]-7-methoxy-1,2,3,4-tetrahydroisoquinoline]
The SI of the first is lower: 8 for the first, 8.2 for the second.

First: COc1ccc(CCC2NCCc3cc(OC)c(OC)cc32)cc1OC (stereo not shown) [Example A, 1-[2-(3,4-Dimethoxyphenyl)ethyl]-6,7-dimethoxy-1,2,3,4-tetrahydroisoquinoline]
Second: COc1cc2c(cc1OCc1ccccc1)CCNC2/C=C/c1cc(OCC(C)(C)C)c(OC)cc1C (stereo not shown) [BX, 6-Benzyloxy-1-[(E)-2-[5-(2,2-dimethylpropoxy)-4-methoxy-2-methyl-phenyl]vinyl]-7-methoxy-1,2,3,4-tetrahydroisoquinoline]
The SI of the first is lower: 1 for the first, 9.71 for the second.

First: COc1cc2c(cc1OCc1ccccc1)CCNC2c1ccccc1CNC(=O)OC(C)(C)C (stereo not shown) [AZ, tert-Butyl N-[[2-(6-benzyloxy-7-methoxy-1,2,3,4-tetrahydroisoquinolin-1-yl)phenyl]methyl]carbamate]
Second: COc1cc2c(cc1OCc1ccccc1)CCNC2/C=C/c1ccc(C(=O)O)cc1 (stereo not shown) [EQ, 4-[(E)-2-(6-benzyloxy-7-methoxy-1,2,3,4-tetrahydroisoquinolin-1-yl)vinyl]benzoic acid]
The SI of the first is higher: 12.3 for the first, 1.4 for the second.

Going from `COc1cc(F)c(/C=C/C2NCCc3cc(OCc4ccccc4)c(OC)cc32)c(F)c1` (stereo not shown) [BU, 6-Benzyloxy-1-[(E)-2-(2,6-difluoro-4-methoxy-phenyl)vinyl]-7-methoxy-1,2,3,4-tetrahydroisoquinoline] to `COc1ccc2cc(/C=C/C3NCCc4cc(OCc5ccccc5)c(OC)cc43)ccc2c1` (stereo not shown) [DI, (E)-6-(benzyloxy)-7-methoxy-1-(2-(6-methoxynaphthalen-2-yl)vinyl)-1,2,3,4-tetrahydroisoquinoline], the SI falls from 10.4 to 9.2.

`COc1ccc(/C=C/C2NCCc3cc(OCc4ccccc4)c(OC)cc32)cc1COCC(F)(F)F` (stereo not shown) [EO, 6-Benzyloxy-7-methoxy-1-[(E)-2-[4-methoxy-3-(2,2,2-trifluoroethoxymethyl)phenyl]vinyl]-1,2,3,4-tetrahydroisoquinoline] gave an SI of 3.8.

With `COc1cc(C)c(/C=C/C2c3cc(OC)c(OCc4ccccc4)cc3CCN2C(=O)c2ccncc2)cc1OCc1ccccc1` (stereo not shown) [Example U, [6-benzyloxy-1-[(E)-2-(5-benzyloxy-4-methoxy-2-methyl-phenyl)vinyl]-7-methoxy-3,4-dihydro-1H-isoquinolin-2-yl]-(4-pyridyl)methanone] the SI was over 115.
